Pooled drug test results. Numbers come from NIAID ChemDB, via PubChem.

Common to all: whole-cell or culture tests; agent: HIV-1; measure: inhibition

Neighbouring rows are from separate reports.

compound,read by,cells,setting,strain or isolate,mutations,dose,result
O=c1nc(N2CCCC2)ccn1[C@H]1C[C@@H](O)[C@@H](CO)O1,XTT / cell fusion,CEM-SS,-,IIIB,-,10 µM,3.6%
Cc1ccc(-c2ccc3c(c2)C=C(C(=O)Nc2ccc(C[N+](C)(C)C4CCOCC4)cc2)CCC3)cc1,p24,PBMC,-,CM4 CLADE C,-,1 µM,99.6%
O=c1oc2cc(O)c(O)cc2c(O)c1-c1coc2c1c(=O)oc1cc(O)c(O)cc12,MTT,MT-4,-,IIIB,-,0.01 µM,0%
CC(=O)N1C(=O)[C@@H](c2ccccc2)NC1=S,cytopathic effect / XTT,MT-4,-,-,-,10 µg/mL,0%
CCCCCCCCCCCCCCCCOP(=O)(OC[C@H]1OC(O)[C@@H](O)[C@@H](O)[C@@H]1O)OC[C@H]1O[C@@H](n2cc(C)c(=O)[nH]c2=O)C[C@@H]1N=[N+]=[N-],RT activity,CEM,22 d,LAV-Bru,-,0.2 µM,0%
Nc1ncnc2c1ncn2[C@H]1C[C@@H](CO)O1,antigen,MT-4,-,-,-,3 µg/mL,99.9%
O=S(=O)(O)c1c2ccccc2c(-c2c3nc(c(-c4c5ccccc5c(S(=O)(=O)O)c5ccccc45)c4ccc([nH]4)c(-c4c5ccccc5c(S(=O)(=O)O)c5ccccc45)c4nc(c(-c5c6ccccc6c(S(=O)(=O)O)c6ccccc56)c5ccc2[nH]5)C=C4)C=C3)c2ccccc12,β-galactosidase,MAGI,-,IIIB,-,50 µg/mL,97%
CN(C(=O)[C@H](Cc1ccccc1)NC(=O)Cc1cccc2ccccc12)c1ccc(Cl)cc1,fluorescence,-,-,NL4-3,-,20 µM,100%
Nc1ncnc2c1ncn2[C@@H]1O[C@H](CO)[C@@H]1O,antigen,MT-4,-,-,-,10 µg/mL,99.9%
CN(C(=O)[C@H](Cc1ccccc1)NC(=O)CN1C(=O)NC2(CCCCC2)C1=O)c1ccccc1,fluorescence,-,-,NL4-3,-,20 µM,89%
CC(C)[C@H](NC(=O)CCCNC(=O)[C@]12CCC(C)(C)C[C@H]1C1=CC[C@@H]3[C@@]4(C)C[C@@H](O)[C@H](O)C(C)(C)[C@@H]4CC[C@@]3(C)[C@]1(C)CC2)C(=O)O,p24 / ELISA,MT-2,-,pNL4-3,-,10 µM,33.8%
N#Cc1cc(Cl)cc(Oc2c(Cl)ccc3c2cnn3Cc2[nH]nc3nc(N)ccc23)c1,-,MT-4,-,-,-,0.0041 µM,>95%
CC(=O)CCC(=O)NCCCOCCOCCCNC(=O)CNC(=O)[C@H](CS)NC(=O)[C@@H](NC(=O)[C@@H](NC(=O)[C@H](CO)NC(=O)[C@@H](N)CS)C(C)C)[C@@H](C)O,p24,PBMC(PHA STIM.) + PBMC,-,p13,-,1.8 µM,72%
COc1ccc(N(C)C(=O)[C@H](Cc2ccccc2)NC(=O)CN2C(=O)NC3(CCCCC3)C2=O)cc1,fluorescence,-,-,NL4-3,-,20 µg/mL,93%
N=C1Sc2ccccc2C2=NCCCN12,β-galactosidase,TZM-bl,-,92HT599,-,5.9 µM,90%
Cc1nc(NC(=O)NCCc2ccccc2)sc1C,RT activity,MT-4,-,-,-,0.1 µg/mL,1%
O=c1[nH]cnc2c1ncn2[C@@H]1O[C@H](CO)[C@H]1COS(=O)(=O)O,antigen,MT-4,-,-,-,100 µg/mL,>99.9%
Cc1cn([C@H]2C[C@H](N=[N+]=[N-])[C@@H](COP(=O)(O)OCCO[C@H]3O[C@H](CO)[C@@H](O)[C@H](O)[C@@H]3O)O2)c(=O)[nH]c1=O,RT activity,CEM,26 d,LAV-Bru,-,25 µM,89%
O=C1[C@@H](Cc2ccccc2)NC(=S)N1Cc1ccccc1,cytopathic effect / XTT,MT-4,-,-,-,100 µg/mL,100%
[N-]=[N+]=NC[C@H]1[C@H](n2cnc3c(N)ncnc32)O[C@@H]1CO,antigen,MT-4,-,-,-,100 µg/mL,>99.9%
OC[C@H]1O[C@@H](n2cnc3c(N4C[C@H](O)[C@@H](O)C4)ncnc32)C[C@H]1O,visual reading / cell fusion,CEM-SS,-,IIIB,-,10 µM,0%
Cc1ccc(F)c2c(C(=O)C(=O)N3CCN(C(=O)c4ccccc4)C[C@H]3C)c[nH]c12,luciferase,HeLa + HELA CD4+/CCR5,-,-,-,10 µM,>98%
N#Cc1cc(Cl)cc(Oc2cc(OCc3[nH]nc4ncccc34)ccc2Cl)c1,-,MT-4,50% human serum,-,-,0.052 µM,>95%
CC(C)[C@H](NC(=O)CCCCCNC(=O)[C@]12CCC(C)(C)C[C@H]1C1=CC[C@@H]3[C@@]4(C)C[C@@H](O)[C@H](O)C(C)(C)[C@@H]4CC[C@@]3(C)[C@]1(C)CC2)C(=O)O,p24 / ELISA,MT-2,-,pNL4-3,-,10 µM,16.2%
[N-]=[N+]=N[C@H]1[C@H](n2cnc3c(N)ncnc32)O[C@@H]1CO,antigen,MT-4,-,-,-,100 µg/mL,99.9%
CC1(C)[C@@H](O[C@H]2O[C@H](C(=O)O)[C@@H](O)[C@H](O)[C@H]2O[C@@H]2O[C@H](C(=O)O)[C@@H](O)[C@H](O)[C@H]2O)CC[C@]2(C)[C@H]3C(=O)C=C4[C@@H]5C[C@@](C)(C(=O)O)CC[C@]5(C)CC[C@@]4(C)[C@]3(C)CC[C@@H]12,antigen,MOLT-4,6 d,IIIB,-,1200 µM,39.8%
CCc1cccc2c(C(=O)C(=O)N3CCN(C(=O)c4ccccc4)C[C@@H]3C)c[nH]c12,luciferase,HeLa + HELA CD4+/CCR5,-,-,-,10 µM,72%
COC(=O)CCCCCCCCCCNC(=O)[C@]12CCC(C)(C)C[C@H]1C1=CC[C@@H]3[C@@]4(C)C[C@@H](O)[C@H](O)C(C)(C)[C@@H]4CC[C@@]3(C)[C@]1(C)CC2,p24 / ELISA,MT-2,-,pNL4-3,-,10 µM,33.1%
O=C(NCCc1ccccc1)Nc1nc(C(F)(F)F)cs1,RT activity,MT-4,-,-,-,100 µg/mL,97%
CC(C)(C)OC(=O)Nc1cccc(C(=O)N2CCN(C(=O)C(=O)c3c[nH]c4cccc(F)c34)CC2)c1,luciferase,HeLa + HELA CD4+/CCR5,-,-,-,10 µM,98%
COC(=O)C(=O)c1csc(NC(=O)NCCc2ccccc2)n1,cytopathic effect / XTT,MT-4,-,-,-,1 µg/mL,0%
Cc1ccc(C)c2c1NC(=O)C2CC(=O)N[C@@H](Cc1ccccc1)C(=O)N(C)c1cccc(Cl)c1,fluorescence,-,-,NL4-3,-,2 µM,27%
COC(=O)[C@H](C)NC(=O)[C@]12CCC(C)(C)C[C@H]1C1=CC[C@@H]3[C@@]4(C)C[C@@H](O)[C@H](O)C(C)(C)[C@@H]4CC[C@@]3(C)[C@]1(C)CC2,p24 / ELISA,MT-2,-,pNL4-3,-,25 µM,91.1%
Cc1ccc(C)c2c1NC(=O)C2CC(=O)N[C@@H](Cc1ccccc1)C(=O)N(C)c1ccccc1,fluorescence,-,-,NL4-3,-,20 µM,72%
O=S(=O)(O)c1ccc(-c2c3nc(c(-c4ccc(S(=O)(=O)O)cc4)c4ccc([nH]4)c(-c4ccc(S(=O)(=O)O)cc4)c4nc(c(-c5ccccc5)c5ccc2[nH]5)C=C4)C=C3)cc1,β-galactosidase,MAGI,-,IIIB,-,50 µg/mL,81%
Nc1ccnc(N2CCC[C@H]2CO)n1,visual reading / cell fusion,CEM-SS,-,IIIB,-,10 µM,0%
CC1(C)CC[C@]2(C(=O)NCCCCCC(=O)O)CC[C@]3(C)C(=CC[C@@H]4[C@@]5(C)C[C@@H](O)[C@H](O)C(C)(C)[C@@H]5CC[C@]43C)[C@@H]2C1,p24 / ELISA,MT-2,-,pNL4-3,-,25 µM,20.7%
COC(=O)C1=CN(C(=O)C(=O)c2c[nH]c3c(C(=O)OC)cccc23)CCN1C(=O)c1ccccc1,luciferase,HeLa + HELA CD4+/CCR5,-,-,-,10 µM,92%
N#Cc1cc(Cl)cc(Oc2c(Cl)ccc3c2nnn3Cc2[nH]nc3ncccc23)c1,-,MT-4,50% human serum,-,-,0.023 µM,>95%
C[C@H]1[C@H](O)[C@@H](C)/C=C/C=C/C=C/C=C/C=C/C=C/C=C/[C@H](O[C@@H]2O[C@H](C)[C@@H](O)[C@H](N)[C@@H]2O)C[C@@H]2O[C@](O)(C[C@@H](O)C[C@@H](O)CC[C@H](O)[C@@H](O)C[C@@H](O)CC(=O)O[C@H]1C)C[C@H](O)[C@H]2C(=O)O,p24 / RT activity,PBMC,-,92UG001 CLADE D X4/X5 (SI),-,3.8 µM,90%
CC(=O)N1C(=O)[C@@H](Cc2ccc(Cl)cc2)NC1=S,cytopathic effect / XTT,MT-4,-,-,-,100 µg/mL,18%
CC(C)[C@H](NC(=O)[C@H](CO)NC(=O)[C@H](CS)NC(=O)CCC(=O)NCCCOCCOCCCN)C(=O)N[C@H](C(=O)N[C@@H](CS)C(=O)NCC(=O)O)[C@@H](C)O,p24,PBMC(PHA STIM.) + PBMC,-,p13,-,1.8 µM,74%
C[C@H]1[C@H](O)[C@@H](C)/C=C/C=C/C=C/C=C/C=C/C=C/C=C/[C@H](O[C@@H]2O[C@H](C)[C@@H](O)[C@H](N)[C@@H]2O)C[C@@H]2O[C@](O)(C[C@@H](O)C[C@@H](O)CC[C@H](O)[C@@H](O)C[C@@H](O)CC(=O)O[C@H]1C)C[C@H](O)[C@H]2C(=O)O,p24 / antigen,H9,-,IIIB,-,0.01 µg/mL,29%
CCCCCCCCCCCCCCCCOP(=O)(OCCO[C@@H]1O[C@H](CO)[C@@H](O)[C@H](O)[C@@H]1O)OC[C@H]1O[C@@H](n2cc(C)c(=O)[nH]c2=O)C[C@@H]1N=[N+]=[N-],RT activity,CEM,22 d,LAV-Bru,-,0.2 µM,0%
Nc1nc(N2C[C@H](O)[C@@H](O)C2)c2ncn([C@H]3C[C@@H](O)[C@@H](CO)O3)c2n1,visual reading / cell fusion,CEM-SS,-,IIIB,-,10 µM,1.2%
Cc1ccc(C)c2c1NC(=O)C2CC(=O)N[C@@H](Cc1ccccc1)C(=O)N(C)c1ccc(F)cc1,fluorescence,-,-,NL4-3,-,2 µM,0%
Cc1cccc2sc(NC(=O)NCCc3ccccc3)nc12,cytopathic effect / XTT,MT-4,-,-,-,10 µg/mL,28%
CN1C(=O)N(C)C(=O)C2(C1=O)[C@@H](c1ccco1)CC(=O)C[C@H]2[C@H]1COC(C)(C)O1,MTT,SupT1,-,NL4-3,-,0.1 µM,>50%
CC1(C)CC[C@]2(C(=O)O)CC[C@]3(C)C(=CC[C@@H]4[C@@]5(C)C[C@@H](O)[C@H](O)C(C)(C)[C@@H]5CC[C@]43C)[C@@H]2C1,p24 / ELISA,MT-2,-,pNL4-3,-,10 µM,43.7%
C=C(C)[C@@H]1CC[C@]2(C(=O)NCCCCCCCC(=O)N[C@@H](CC(C)C)[C@@H](O)CC(=O)O)CC[C@]3(C)[C@H](CC[C@@H]4[C@@]5(C)CC[C@H](O)C(C)(C)[C@@H]5CC[C@]43C)[C@@H]12,syncytia,HeLa P4 + HeLa,-,LAI,GP41-E109D A109D,10 µM,>99%
N=C1Sc2ccccc2C2=NCCCN12,ELISA,PBMC,-,98IN022,-,1.48 µM,90%
O=C(C(=O)N1CCN(C(=O)c2ccco2)CC1)c1c[nH]c2c(F)ccc(F)c12,luciferase,HeLa + HELA CD4+/CCR5,-,-,-,10 µM,>98%
O=c1nc(N2C[C@H](O)[C@@H](O)C2)ccn1[C@H]1CC[C@@H](CO)O1,visual reading / cell fusion,CEM-SS,-,IIIB,-,10 µM,2%
Nc1ccn([C@H]2CC[C@@H](CO)O2)c(=O)n1,antigen,MT-4,-,IIIB,-,0.1 µM,70%
Cc1ccoc1C(=O)N1CCN(C(=O)C(=O)c2c[nH]c3cccc(F)c23)CC1,luciferase,HeLa + HELA CD4+/CCR5,-,-,-,10 µM,>98%

Repeating the first 7 entries:

| compound | read by | cells | setting | strain or isolate | mutations | dose | result |
|---|---|---|---|---|---|---|---|
| O=c1nc(N2CCCC2)ccn1[C@H]1C[C@@H](O)[C@@H](CO)O1 | XTT / cell fusion | CEM-SS | - | IIIB | - | 10 µM | 3.6% |
| Cc1ccc(-c2ccc3c(c2)C=C(C(=O)Nc2ccc(C[N+](C)(C)C4CCOCC4)cc2)CCC3)cc1 | p24 | PBMC | - | CM4 CLADE C | - | 1 µM | 99.6% |
| O=c1oc2cc(O)c(O)cc2c(O)c1-c1coc2c1c(=O)oc1cc(O)c(O)cc12 | MTT | MT-4 | - | IIIB | - | 0.01 µM | 0% |
| CC(=O)N1C(=O)[C@@H](c2ccccc2)NC1=S | cytopathic effect / XTT | MT-4 | - | - | - | 10 µg/mL | 0% |
| CCCCCCCCCCCCCCCCOP(=O)(OC[C@H]1OC(O)[C@@H](O)[C@@H](O)[C@@H]1O)OC[C@H]1O[C@@H](n2cc(C)c(=O)[nH]c2=O)C[C@@H]1N=[N+]=[N-] | RT activity | CEM | 22 d | LAV-Bru | - | 0.2 µM | 0% |
| Nc1ncnc2c1ncn2[C@H]1C[C@@H](CO)O1 | antigen | MT-4 | - | - | - | 3 µg/mL | 99.9% |
| O=S(=O)(O)c1c2ccccc2c(-c2c3nc(c(-c4c5ccccc5c(S(=O)(=O)O)c5ccccc45)c4ccc([nH]4)c(-c4c5ccccc5c(S(=O)(=O)O)c5ccccc45)c4nc(c(-c5c6ccccc6c(S(=O)(=O)O)c6ccccc56)c5ccc2[nH]5)C=C4)C=C3)c2ccccc12 | β-galactosidase | MAGI | - | IIIB | - | 50 µg/mL | 97% |

Inhibition is in % at the dose shown (toxicity tests: loss of growth or viability). An empty or dashed field is not shown.